Our source for the IC50 values is patent publication US10011599B2 (priority 2013, dated 2018).

The subject of this assay is A375 cells. The assay can be described thus: cells. Conditions: Homo sapiens, A-375, 72 h, read-out: A375 XTT IC50 uM.

Regarding `Cc1nc2cnc3cc(F)c(-c4ccc(Oc5ncccn5)cc4Cl)cc3c2n1C1CCN(C(=O)CF)CC1` [Example 96, 1-(4-(8-(2-chloro-4-(pyrimidin-2-yloxy)phenyl)-7-fluoro-2-methyl-1H-imidazo[4,5-c]quinolin-1-yl)piperidin-1-yl)-2-fluoroethanone], the IC50 is 0.394 µM. With `Cc1nc2cnc3cc(F)c(-c4ccc(Oc5ncccn5)cc4Cl)cc3c2n1[C@H]1CCN(C(=O)CF)C[C@@H]1F` [Example 97, 1-((3S,4S)-4-(8-(2-chloro-4-(pyrimidin-2-yloxy)phenyl)-7-fluoro-2-methyl-1H-imidazo[4,5-c]quinolin-1-yl)-3-fluoropiperidin-1-yl)-2-fluoroethanone], the IC50 was 0.09 µM.
